Source: article PMC3793909
For at least one entry, the source does not settle the construct or the ends of the probe. Where a protein sequence is shown, tags need not be part of it.

Columns and labels:
[1] = biological target: T1, ComA (Bacillus nematocida B16) (UniProt P14204); assay: EMSA; conditions: 30 ng ComA; recombinant protein; label: biotin 5' end
T1 sequence (looked up, limits assumed): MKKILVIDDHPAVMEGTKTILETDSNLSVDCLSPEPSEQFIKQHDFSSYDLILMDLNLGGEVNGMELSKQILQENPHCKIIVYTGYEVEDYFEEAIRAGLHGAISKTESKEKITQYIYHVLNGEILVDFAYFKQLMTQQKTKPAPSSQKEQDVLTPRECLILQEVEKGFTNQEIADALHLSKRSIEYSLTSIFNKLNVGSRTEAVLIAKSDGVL

[2] = biological target: T1, ComA (Bacillus nematocida B16); assay: competition with a labelled probe; conditions: 50- and 100-fold excess over labeled probe, retarded band faded and disappeared; recombinant protein

Sequence | binding result [1] | binding result [2]
CCGATGCTGGCCGCCGGAAGCCTTT (double strand) [bae16 promoter probe -185 to -160 (Q1a/RQ1a)] | binds | 
CCGATGCTGGCCGCCGGAAGCCTTT (double strand) [unlabeled bae16 promoter competitor (LQ1/LQ2)] |  | binds
